Results of unrelated studies side by side (data: NIAID ChemDB).

All rows: growth or infection tests; agent: Mycobacterium tuberculosis

ECn: concentration that inhibits the pathogen or its effect by n%.

structure,strain,changes,cell line,method,setting,measure,tested at,result
COc1ccc(Nc2nc(NNc3nc(-c4ccc(Cl)cc4)c(C#N)c(=O)n3C)nc(Nc3ccc(OC)cc3)n2)cc1,H37Rv,,,,,MIC,,>12.5 µg/mL
CCOC(=O)COc1ccc(-c2ccc(C#N)cc2)c(CN2CCN(c3cccc(C)n3)CC2)c1,H37Rv (ATCC 27294),,,broth dilution,,MIC,,4 µg/mL
N/C(=N\N=C\c1cc(Cl)ccc1O)SCc1ccc(Br)cc1,H37Rv,,,broth dilution,14 d,MIC,,16 µM
CC(Oc1ccc(-c2nc(N)nc(N)n2)cc1)c1ccc(Br)cc1,H37Rv,,,resazurin,,MIC,,56.47 µM
CCOC(=O)CC/C(C)=N/NC(=O)c1ccc[n+](C)c1.Cc1ccc(S(=O)(=O)O)cc1,H37Rv,,,BACTEC,,inhibition,12.5 µg/mL,-4%
Cn1c(NNc2nc(NCc3ccccc3)nc(NCc3ccccc3)n2)nc(-c2ccc(Cl)cc2)c(C#N)c1=O,H37Rv,,,,,EC50,,<12.5 µg/mL
N#Cc1ccc(-c2ccc(OCC(=O)O)cc2CN2CCN(c3ccccc3C#N)CC2)cn1,H37Rv (ATCC 27294),,,broth dilution,,MIC,,32 µg/mL
COc1ccc(Nc2nc(NNc3nc(-c4ccccc4)c(C#N)c(=O)n3C)nc(Nc3ccc(OC)cc3)n2)cc1,H37Rv,,,,,EC50,,<12.5 µg/mL
CC(NC(=O)c1ccccc1C(F)(F)F)c1nnc(SCCOc2ccc(F)cc2)n1Cc1ccc(F)cc1,H37Rv (ATCC 27294),,,broth dilution,7 d,MIC,,>64 µg/mL
NNC(=O)c1ccncc1,MYC 431,XDR,,resazurin / fluorescence,,MIC,,>100 µg/mL
Fc1ccc(CNCCN(Cc2ccccc2)Cc2ccccc2)cc1,,,,,,MIC,,25 µM
Cc1cc(OC(=O)c2c(-c3c(Cl)cccc3Cl)noc2C)n(-c2ccc(NC(=O)c3c(-c4c(Cl)cccc4Cl)noc3C)cc2)n1,H37Rv,,,resazurin,,MIC bound,,>6.25 µg/mL
CCOc1ccc(-n2c(-c3ccc(Br)cc3)cs/c2=N\NC(=O)COc2cnccn2)cc1,H37Rv,,,,,MIC,,17 µg/mL
Cn1c(NNc2nc(NCc3ccco3)nc(NCc3ccco3)n2)nc(-c2ccc(Cl)cc2)c(C#N)c1=O,H37Rv,,,,,MIC,,>12.5 µg/mL
N/C(=N\N=C\c1ccccc1O)SCc1ccc(F)cc1,H37Rv,,,broth dilution,14 d,MIC,,32 µM
COc1ccc(-c2ccc(OCC(=O)O)cc2CN2CCN(c3cccc(C)n3)CC2)cc1,H37Rv (ATCC 27294),,,broth dilution,,MIC,,>64 µg/mL
O=C(COc1cnccn1)NNC(=S)Nc1ccc(Cl)cc1[N+](=O)[O-],H37Rv,,,,,MIC,,61 µg/mL
N#C/C(=C\c1ccc(I)cc1)n1nnc2ccccc21,ATCC 27294,,,,,MIC90,,33.3 µM
CO[C@H]1/C=C/O[C@@]2(C)Oc3c(C)c(O)c4c(O)c(c(/C=N/N5CCN(C6CCCC6)CC5)c(O)c4c3C2=O)NC(=O)/C(C)=C\C=C\[C@H](C)[C@H](O)[C@@H](C)[C@@H](O)[C@@H](C)[C@H](OC(C)=O)[C@@H]1C,Erdman,,,,,MBC,,0.5 µg/mL
CCOC(=O)CCCNC(CC(=O)OCC)[C@H]1O[C@@H]2OC(C)(C)O[C@@H]2[C@H]1OCc1ccccc1,H37Ra,,,,,MIC,,>25 µg/mL
Cc1c2ccncc2c(C)c2c1[nH]c1ccc(Br)cc12,H37Rv,,,resazurin / fluorescence,,MIC,,>100 µM
CCCCCCCCCCCC#CCCCCC(=O)O,H37Rv,,,BACTEC,,inhibition,12.5 µg/mL,27%
O=C(COc1cnccn1)N/N=c1\scc(-c2ccccc2)n1-c1ccc(Cl)cc1,H37Rv,,,,,MIC,,12.5 µg/mL
COc1ccc(/C=C(\C#N)n2nnc3ccccc32)cc1,ATCC 27294,,,,,MIC50,,70 µM
Cn1c(NNc2nc(Nc3cc(Cl)cc(Cl)c3)nc(Nc3cc(Cl)cc(Cl)c3)n2)nc(-c2ccc(Cl)cc2)c(C#N)c1=O,H37Rv,,,,,MIC,,>12.5 µg/mL
Cc1cc(Br)cc(C)c1NC(=O)C(=O)C(C(=O)c1ccncc1)C1OC(=O)c2ccccc21,H37Rv,,,resazurin,,inhibition,6.25 µg/mL,7%
CO[C@H]1/C=C/O[C@@]2(C)Oc3c(C)c(O)c4c(=O)c(c5oc6cc(N7CCN(CC(C)C)CC7)cc(=O)c6nc5c4c3=C2O)NC(=O)/C(C)=C\C=C\[C@H](C)[C@H](O)[C@@H](C)[C@@H](O)[C@@H](C)[C@H](OC(C)=O)[C@@H]1C,H37Rv,,,,,MIC,,0.0156 µg/mL
Cc1ccc2[nH]c3c(C)c4ccncc4c(C)c3c2c1,H37Rv,,,resazurin / fluorescence,,MIC,,>100 µM
CC(NC(=O)c1ccccc1C(F)(F)F)c1nnc(SCc2ccc(F)cc2)n1Cc1cccnc1,H37Rv (ATCC 27294),,,broth dilution,7 d,MIC,,>64 µg/mL
COc1ccc(CCNCCNCCc2ccc(F)cc2)cc1,,,,,,MIC,,12.5 µM
Cn1c(NNc2nc(Nc3cccc([N+](=O)[O-])c3)nc(Nc3cccc([N+](=O)[O-])c3)n2)nc(-c2ccc(Cl)cc2)c(C#N)c1=O,H37Rv,,VERO,,,EC50,,<12.5 µg/mL
N#C/C(=C\c1cccc(Cl)c1Cl)n1nnc2ccccc21,ATCC 27294,,,,,MIC90,,>100 µM
Cc1ccc2[nH]c3c(C)c4cc[n+](C)cc4c(C)c3c2c1,MYC 431,XDR,,resazurin / fluorescence,,MIC,,1.5 µM
CC[C@@H](CO)NCCN[C@@H](CC)CO,MDR21,,,broth dilution / resazurin,,MIC,,8 µg/mL
CB1N(c2ccccc2)B(C)N(c2ccccc2)B(C)N1c1ccccc1,H37Rv,,,BACTEC,,MIC,,≥128 µg/mL
CCCCn1c(-c2ccc(C)cc2)cs/c1=N\NC(=O)COc1cnccn1,H37Rv,,,,,MIC,,8.7 µg/mL
Cc1cccc(CNCCNCCc2ccc(Cl)cc2Cl)c1,,,,,,MIC,,12.5 µM
CC(C)n1c(-c2ccc(Cl)cc2)cs/c1=N\NC(=O)COc1cnccn1,H37Rv,,,,,MIC,,8.7 µg/mL
CCCCCCCCCCCCCCCCNC(CC(=O)OCC)[C@H]1O[C@@H]2OC(C)(C)O[C@@H]2[C@H]1OCc1ccccc1,H37Rv,,,,,MIC,,>25 µg/mL
NC1C(=O)NC(=O)NC1=O,H37Rv,,,BACTEC,,MIC bound,,>12.5 µg/mL
CCCCCCCCCCCCCCCCN[C@H](CC(=O)OCC)[C@H]1O[C@@H]2OC(C)(C)O[C@@H]2[C@H]1OC,H37Ra,,,,,MIC,,>100 µg/mL
CO[C@@H]1/C=C/O[C@@]2(C)Oc3c(C)c(O)c4c(c3C2=O)C(=N[C@@H]2CC[C@@H](O)O[C@H]2C)C=C(NC(=O)/C(C)=C\C(=O)[C@@H]2C[C@@H]2[C@H](O)[C@@H](C)[C@@H](O)[C@@H](C)[C@H](OC(C)=O)[C@@H]1C)C4=O,H37Rv,,,BACTEC,,MIC bound,,>12.5 µg/mL
CO[C@H]1/C=C/O[C@@]2(C)Oc3c(C)c(O)c4c(O)c(c(/C=N/N5CCN(C)CC5)c(O)c4c3C2=O)NC(=O)/C(C)=C\C=C\[C@H](C)[C@H](O)[C@@H](C)[C@@H](O)[C@@H](C)[C@H](OC(C)=O)[C@@H]1C,,513Lys,,,,MIC99,,>640 µg/mL
CC(Oc1ccc(-c2nc(N)nc(N)n2)cc1)c1ccc(Cl)cc1Cl,H37Rv,,,resazurin,,MIC,,245 µM
CC(=O)Nc1ccc(C(=O)NN2C(=O)C(Cl)C2/C=C\c2ccccc2)cc1,H37Rv,,,BACTEC,,inhibition,12.5 µg/mL,67%
CC(Oc1ccc(-c2nc(N)nc(N)n2)cc1)c1ccc(Cl)cc1,H37Rv,,,resazurin,,MIC,,8.57 µM
Cc1nc(C#N)ccc1-c1ccc(OCC(=O)O)cc1CN1CCN(c2ccccn2)CC1,H37Rv (ATCC 27294),,,broth dilution,,MIC,,32 µg/mL
OCCN(CCCN(CCO)C(=S)S)C(=S)S,H37Rv,,,BACTEC,,MIC,,≥12.5 µg/mL
N#C/C(=C\c1ccc(Cl)c(Cl)c1)n1nnc2ccccc21,ATCC 27294,,,,,MIC90,,≥100 µM
CCNc1nc(NCC)nc(NNc2nc(-c3ccc(Cl)cc3)c(C#N)c(=O)n2C)n1,H37Rv,,,,,EC50,,<12.5 µg/mL
N/C(=N\N=C\c1cc(Br)ccc1O)SCc1ccc(Br)cc1,H37Rv,,,broth dilution,21 d,MIC,,32 µM
CO[C@@H]1[C@H]2OC(C)(C)O[C@H]2O[C@@H]1C(N)CC(=O)O,H37Ra,,,,,MIC,,>100 µg/mL
Cc1cc(OC2OC(CO)C(O)C(O)C2O)ccc1O,H37Rv,,,BACTEC,,inhibition,12.5 µg/mL,6%
c1ccc(CNCCN[C@H]2C[C@@H]3CC[C@H]2C3)cc1,,,,,,MIC,,50 µM
Cc1ccc(S(=O)(=O)NC(=O)O/N=C/c2ccco2)cc1,H37Rv,,,BACTEC,,MIC bound,,>12.5 µg/mL
CCCCCCCCCCCCNC(CC(=O)OCC)[C@H]1O[C@@H]2OC(C)(C)O[C@@H]2[C@H]1OCc1ccccc1,H37Ra,,,,,MIC,,>25 µg/mL
O=Nc1c(-c2ccccc2)nc2ccccn12,H37Rv,,VERO,,,MIC,,0.22 µg/mL
Cc1ccc(CS/C(N)=N/N=C/c2cc(Cl)ccc2O)cc1,H37Rv,,,broth dilution,14 d,MIC,,32 µM
COc1ccc(CCNCCNCCC(c2ccccc2)c2ccccc2)cc1,,,,,,MIC,,50 µM
NNC(=O)c1nnc(N)o1,H37Rv,,,BACTEC,,MIC bound,,>12.5 µg/mL
CC1COc2c(N3CCN(C)CC3)c(F)cc3c(=O)c(C(=O)O)cn1c23,100 isolates,,,,,MIC50,,1 µg/mL
Nc1nc(N)nc(-c2ccc(-n3nnc4ccccc4c3=O)cc2)n1,H37Rv,,,BACTEC,,inhibition,12.5 µg/mL,0%
CCCCCCCCCCCCCCCCN[C@@H](CC(=O)OCC)[C@H]1O[C@@H]2OC(C)(C)O[C@@H]2[C@H]1OC,H37Ra,,,,,MIC,,3.12 µg/mL
Cn1c2ccc([N+](=O)[O-])cc2c(=O)n1Cc1ccccc1F,H37Rv,,,resazurin,,MIC bound,,>6.25 µg/mL
O=C(O)COc1ccc(-c2ccccc2Cl)c(CN2CCN(c3ccccn3)CC2)c1,H37Rv (ATCC 27294),,,broth dilution,,MIC,,32 µg/mL
COC(=O)c1nn2c(=O)[nH]c3ccccc3c2c1C(=O)OC,H37Rv,,,BACTEC,,MIC bound,,>12.5 µg/mL
CCOC(=O)CC(NCc1ccccc1)[C@H]1O[C@@H]2OC(C)(C)O[C@@H]2[C@H]1OC,H37Rv,,,,,MIC,,>100 µg/mL
N/C(=N\N=C\c1cc(Cl)ccc1O)SCc1ccccc1,H37Rv,,,broth dilution,21 d,MIC,,32 µM
Clc1ccccc1CCNCCNC1CCCCCCC1,,,,,,MIC,,50 µM
Clc1ccc2c(c1)N(CCCN1CCCC13CCCCC3)c1ccccc1S2,H37Rv,,,BACTEC,,inhibition,12.5 µg/mL,92%
CCCCCCCCCCCCNC(CC(=O)O)[C@H]1O[C@@H]2OC(C)(C)O[C@@H]2[C@H]1OC,H37Rv,,,,,MIC,,>50 µg/mL
CCCCCNCCNCCc1ccc(F)cc1,,,,,,MIC,,12.5 µM
COc1ccc(C(=O)Cc2nc3nnc(NC(=O)Nc4ccc(Cl)cc4)n3nc2CC(=O)c2ccc(OC)cc2)cc1,H37Rv,,,BACTEC,,MIC bound,,>12.5 µg/mL
Cc1ccc(COc2ccc(-c3nc(N)nc(N)n3)cc2)cc1,H37Rv,,,resazurin,,MIC,,29.45 µM
Cc1ccc(NP2(Nc3ccc(C)cc3)=NP(Nc3ccc(C)cc3)(N3CC3)=NP(Nc3ccc(C)cc3)(N3CC3)=N2)cc1,RMP-R,,,,,MIC,,12.8 µg/mL
O=C(O)COc1ccc(-c2ccc([N+](=O)[O-])cc2)c(CN2CCN(c3ccccn3)CC2)c1,H37Rv (ATCC 27294),,,broth dilution,,MIC,,32 µg/mL
Cc1ccc(CS/C(N)=N/N=C/c2ccccc2O)cc1,H37Rv,,,broth dilution,21 d,MIC,,62.5 µM
O=C1CSC(=S)N1[C@@H]1O[C@H](CO)[C@@H](O)[C@H]1O,H37Rv,,,BACTEC,,inhibition,12.5 µg/mL,3%
Cc1ccc(CS/C(N)=N/N=C/c2ccccc2)cc1,H37Rv,,,broth dilution,14 d,MIC,,32 µM
C[C@H]1CN(c2c(F)cc3c(=O)c(C(=O)O)cn(C4CC4)c3c2OC(F)F)CCN1,100 isolates,,,,,MIC90,,0.5 µg/mL

The last 8 rows once more:

COc1ccc(C(=O)Cc2nc3nnc(NC(=O)Nc4ccc(Cl)cc4)n3nc2CC(=O)c2ccc(OC)cc2)cc1 ; strain: H37Rv ; method: BACTEC ; measure: MIC bound ; result: >12.5 µg/mL
Cc1ccc(COc2ccc(-c3nc(N)nc(N)n3)cc2)cc1 ; strain: H37Rv ; method: resazurin ; measure: MIC ; result: 29.45 µM
Cc1ccc(NP2(Nc3ccc(C)cc3)=NP(Nc3ccc(C)cc3)(N3CC3)=NP(Nc3ccc(C)cc3)(N3CC3)=N2)cc1 ; strain: RMP-R ; measure: MIC ; result: 12.8 µg/mL
O=C(O)COc1ccc(-c2ccc([N+](=O)[O-])cc2)c(CN2CCN(c3ccccn3)CC2)c1 ; strain: H37Rv (ATCC 27294) ; method: broth dilution ; measure: MIC ; result: 32 µg/mL
Cc1ccc(CS/C(N)=N/N=C/c2ccccc2O)cc1 ; strain: H37Rv ; method: broth dilution ; setting: 21 d ; measure: MIC ; result: 62.5 µM
O=C1CSC(=S)N1[C@@H]1O[C@H](CO)[C@@H](O)[C@H]1O ; strain: H37Rv ; method: BACTEC ; measure: inhibition ; tested at: 12.5 µg/mL ; result: 3%
Cc1ccc(CS/C(N)=N/N=C/c2ccccc2)cc1 ; strain: H37Rv ; method: broth dilution ; setting: 14 d ; measure: MIC ; result: 32 µM
C[C@H]1CN(c2c(F)cc3c(=O)c(C(=O)O)cn(C4CC4)c3c2OC(F)F)CCN1 ; strain: 100 isolates ; measure: MIC90 ; result: 0.5 µg/mL

An empty or dashed field is not shown. MIC bound: limit read from a one-dose screen. A number after MIC or MFC names an inhibition level or a share of isolates. Inhibition is in % at the dose shown (toxicity tests: loss of growth or viability). Conditions beyond the fields shown may differ between rows.